Results deposited as PubChem BioAssay AID624099 (ICCB-Longwood, 2012).
Shown is one part, drawn at random, of about 21,000 deposited reagents. 497 of them (2.4%) count as active. 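Higher z means weaker E2 silencing; only reporter increases were scored, and knock-downs that hurt cell survival may mask genuine repressor factors.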 Reagents against one gene are numbered here.

Aim: 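Host factors E2 relies on to silence an HPV18 LCR reporter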 (primary screen)
Cells: human C33A cervical carcinoma cells (HPV-negative) stably expressing BPV1 E2 and an HPV18 LCR luciferase reporter
Knock-down reagent: siRNA pool against human genes, 40 nM
Time to read-out: 72 h
Measurement: 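HPV18 LCR reporter light per well, converted to plate-wise z-scores that exclude control wells, and averaged over triplicate plates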
Reading the numbers: mean z-score and z-score: higher = stronger reporter signal, weaker E2 silencing
Call rule: 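Mean z ≥ 2 together with z ≥ 2 in two or more of the three replicates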

no.	Target gene	reagent no.	mean z-score	z-score, replicate A	z-score, replicate B	z-score, replicate C	outcome
1	IZUMO2	1	-0.15	-0.32	0.18	-0.31	inactive
2	NUP35	1	0.84	1.1	0.79	0.63	inactive
3	ZNF547	1	-1.8	-1.55	-2.03	-1.81	inactive
4	TMEM106B	1	-0.81	-0.9	-0.93	-0.59	inactive
5	DMRTC1	1	-0.42	-0.51	-0.5	-0.26	inactive
6	ASB11	1	-0.72	-0.36	-0.77	-1.03	inactive
7	PRAMEF2	1	0.75	0.84	0.61	0.8	inactive
8	BBOF1	1	-0.38	-0.54	-0.32	-0.26	inactive
9	SYTL5	1	-0.61	-0.8	-0.27	-0.76	inactive
10	RETREG1	1	-0.08	-0.2	0.12	-0.15	inactive
11	UBE2H	1	1.04	1.22	0.69	1.21	inactive
12	CHD1	1	1.96	1.64	2.19	2.05	inactive
13	ILF3	1	-1.54	-1.51	-1.61	-1.5	inactive
14	GLUD2	1	-0.44	-0.45	-0.48	-0.38	inactive
15	MYO1C	1	-0.46	-0.53	-0.58	-0.27	inactive
16	C2CD4A	1	0.77	0.34	0.2	1.77	inactive
17	CUL3	1	-1.35	-1.53	-1.27	-1.24	inactive
18	MAP3K9	1	-0.6	-0.81	-0.66	-0.34	inactive
19	SLCO3A1	1	1	1.36	0.7	0.92	inactive
20	PROKR2	1	-0.8	-1.01	-0.94	-0.46	inactive
21	TTC22	1	-0.5	-0.26	-0.8	-0.45	inactive
22	JAG1	1	0.49	0.2	0.51	0.75	inactive
23	DLX6	1	-0.59	-0.38	-0.75	-0.64	inactive
24	DLX6	2	0.37	0.27	0.63	0.21	inactive
25	PGAP2	1	-0.03	0.13	-0.22	-0.02	inactive
26	H2BW2	1	0.06	-0.15	-0.09	0.41	inactive
27	VSIG10L	1	-0.25	-1.26	0.88	-0.37	inactive
28	ABCG8	1	1.15	1.04	1.23	1.19	inactive
29	SLC7A5P2	1	0.8	0.79	0.68	0.91	inactive
30	ZNF571	1	-1.06	-0.62	-1.3	-1.25	inactive
31	USP22	1	-0.53	-0.52	-0.53	-0.53	inactive
32	ADAM12	1	0.97	0.83	0.91	1.17	inactive
33	CASC2	1	-0.51	-0.23	-0.84	-0.47	inactive
34	POLR2B	1	-3.73	-3.67	-3.73	-3.8	inactive
35	LOC162835 (retired record)	1	1.01	1.01	1.31	0.69	inactive
36	LRRC43	1	0.15	0.09	0.22	0.16	inactive
37	CDCA8	1	-1.35	-1.67	-1.42	-0.96	inactive
38	EIF1AD	1	0.55	0.66	0.49	0.5	inactive
39	TAS2R9	1	-2.13	-2.18	-2.2	-2.01	inactive

Entries above whose target name begins with C or c:
Target gene	reagent no.	mean z-score	z-score, replicate A	z-score, replicate B	z-score, replicate C	outcome
CHD1	1	1.96	1.64	2.19	2.05	inactive
C2CD4A	1	0.77	0.34	0.2	1.77	inactive
CUL3	1	-1.35	-1.53	-1.27	-1.24	inactive
CASC2	1	-0.51	-0.23	-0.84	-0.47	inactive
CDCA8	1	-1.35	-1.67	-1.42	-0.96	inactive
